Literature values, collected in PMC3395435 (Biopolymers, 2012).

Amino acid sequences for entries named in this document (tags omitted).
UniProt Q00975, whole entry, looked up: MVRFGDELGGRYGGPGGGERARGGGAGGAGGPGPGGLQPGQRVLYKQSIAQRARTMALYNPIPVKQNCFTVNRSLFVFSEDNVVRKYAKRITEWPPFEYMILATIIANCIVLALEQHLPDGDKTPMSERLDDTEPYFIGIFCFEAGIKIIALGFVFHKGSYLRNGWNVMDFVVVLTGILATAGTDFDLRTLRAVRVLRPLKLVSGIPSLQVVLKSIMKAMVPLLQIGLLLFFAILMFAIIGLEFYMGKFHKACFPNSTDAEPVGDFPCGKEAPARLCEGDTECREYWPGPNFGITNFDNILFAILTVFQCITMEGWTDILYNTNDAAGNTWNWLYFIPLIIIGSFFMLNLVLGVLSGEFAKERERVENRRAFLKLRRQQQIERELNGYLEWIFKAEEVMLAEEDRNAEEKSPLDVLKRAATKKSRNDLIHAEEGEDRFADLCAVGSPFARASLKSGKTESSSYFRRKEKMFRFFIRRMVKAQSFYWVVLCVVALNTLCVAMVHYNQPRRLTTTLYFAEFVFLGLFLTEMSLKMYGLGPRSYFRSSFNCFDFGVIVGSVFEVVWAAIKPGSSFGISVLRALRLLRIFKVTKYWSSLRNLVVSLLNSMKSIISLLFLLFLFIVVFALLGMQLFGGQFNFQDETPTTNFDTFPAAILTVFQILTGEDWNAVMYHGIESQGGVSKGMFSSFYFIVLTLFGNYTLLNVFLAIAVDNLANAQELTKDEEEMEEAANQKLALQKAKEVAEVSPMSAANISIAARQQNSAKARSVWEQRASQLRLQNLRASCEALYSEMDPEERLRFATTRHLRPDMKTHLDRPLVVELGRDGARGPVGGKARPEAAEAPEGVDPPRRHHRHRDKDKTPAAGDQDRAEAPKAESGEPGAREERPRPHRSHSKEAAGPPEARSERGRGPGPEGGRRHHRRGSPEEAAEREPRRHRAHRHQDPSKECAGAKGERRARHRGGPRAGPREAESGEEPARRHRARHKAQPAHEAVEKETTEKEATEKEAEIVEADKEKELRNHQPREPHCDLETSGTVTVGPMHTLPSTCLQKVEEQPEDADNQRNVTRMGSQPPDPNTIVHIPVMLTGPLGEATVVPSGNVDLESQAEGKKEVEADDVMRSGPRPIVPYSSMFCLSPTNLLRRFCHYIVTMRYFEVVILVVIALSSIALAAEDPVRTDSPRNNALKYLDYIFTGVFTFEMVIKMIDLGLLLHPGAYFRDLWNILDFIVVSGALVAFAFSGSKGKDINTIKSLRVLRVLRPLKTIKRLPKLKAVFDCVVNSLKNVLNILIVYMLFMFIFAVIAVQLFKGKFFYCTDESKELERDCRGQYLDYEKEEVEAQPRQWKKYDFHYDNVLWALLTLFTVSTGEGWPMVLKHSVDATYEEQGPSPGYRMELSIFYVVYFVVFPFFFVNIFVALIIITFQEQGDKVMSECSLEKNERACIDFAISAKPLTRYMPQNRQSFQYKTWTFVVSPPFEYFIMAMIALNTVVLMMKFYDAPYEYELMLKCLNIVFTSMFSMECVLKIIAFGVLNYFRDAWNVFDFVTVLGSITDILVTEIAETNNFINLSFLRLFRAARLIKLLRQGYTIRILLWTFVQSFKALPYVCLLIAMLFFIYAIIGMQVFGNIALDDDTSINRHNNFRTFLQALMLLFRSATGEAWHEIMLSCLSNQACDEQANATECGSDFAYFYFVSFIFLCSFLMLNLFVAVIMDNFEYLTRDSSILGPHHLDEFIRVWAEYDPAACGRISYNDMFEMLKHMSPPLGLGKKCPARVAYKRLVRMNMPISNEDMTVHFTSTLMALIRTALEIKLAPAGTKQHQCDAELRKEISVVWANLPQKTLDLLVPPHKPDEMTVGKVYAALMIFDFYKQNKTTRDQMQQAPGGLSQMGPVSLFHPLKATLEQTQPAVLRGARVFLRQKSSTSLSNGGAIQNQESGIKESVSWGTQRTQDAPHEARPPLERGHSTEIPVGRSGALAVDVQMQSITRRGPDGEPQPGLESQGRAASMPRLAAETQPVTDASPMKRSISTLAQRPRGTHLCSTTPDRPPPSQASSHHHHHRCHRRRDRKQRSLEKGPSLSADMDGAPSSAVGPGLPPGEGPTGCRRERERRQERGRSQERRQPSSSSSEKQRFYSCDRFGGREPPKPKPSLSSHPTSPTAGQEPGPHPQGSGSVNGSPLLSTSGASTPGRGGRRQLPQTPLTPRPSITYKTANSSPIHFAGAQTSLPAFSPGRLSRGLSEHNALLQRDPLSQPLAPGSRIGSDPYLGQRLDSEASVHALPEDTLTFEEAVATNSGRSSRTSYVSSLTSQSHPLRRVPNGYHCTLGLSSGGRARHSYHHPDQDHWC

Molecular target: N-type calcium channel (CaV2.2) (Homo sapiens, UniProt Q00975)
Settings: cited from earlier work

For ω-conotoxin GVIA, the “block of N-type calcium current” value is listed as “equivalent block of N-type calcium currents”.
